Compound potency records, mixed from different reports. Data source: NIAID ChemDB in PubChem.

All rows: tests on isolated targets; organism: HIV-1; target: Protease

Blank or dashed fields: not listed here. ICn: concentration for n% inhibition. Rows are shuffled and stem from different studies.

smiles | method | measure | changes | strain | result
CCOc1ccccc1CNC(=O)[C@H]1N(C(=O)[C@@H](O)[C@H](Cc2ccccc2)NC(=O)COc2c(C)cccc2C)CSC1(C)C | HPLC | IC50 |  |  | >0.05 µM
CC1(C)CC[C@]2(C(=O)O)CC[C@]3(C)C(=CC[C@@H]4[C@@]5(C)CC[C@H](O)C(C)(C)[C@@H]5CC[C@]43C)[C@@H]2C1 | absorbance | IC50 |  |  | <80 µM
CC[C@H](C)C(NC(=O)[C@H](Cc1ccccc1)NCC[C@H](Cc1ccccc1)NC(=O)OC(C)(C)C)C(=O)N[C@@H](Cc1ccccc1)C(N)=O | absorbance | Ki |  |  | 0.07 µM
O=C(CCc1ccccc1)C(F)(F)Cc1ccccc1 | fluorescence | IC50 |  |  | <270 µM
CC(=O)O[C@@H]1[C@@H](OC(C)=O)[C@H](OC(C)=O)CO[C@H]1NC(=NCc1ccccc1)Nc1nc2c(C)cccc2s1 |  | IC50 |  |  | 353 µg/mL
O=c1c(O[C@@H]2O[C@H](CO)[C@@H](O)[C@H](O)[C@H]2O)c(-c2ccc(O)cc2)oc2cc(O)cc(O)c12 |  | IC50 |  |  | >200 µg/mL
CC(C)[C@H](NC(=O)N(C)Cc1ccccn1)C(=O)N[C@@H](Cc1ccccc1)[C@H](O)[C@H](O)[C@H](Cc1ccccc1)NC(=O)[C@@H](NC(=O)N(C)Cc1ccccn1)C(C)C | fluorescence | Ki |  |  | 0.000084 µM
COc1cccc2c(=O)cc(C(=O)O)oc12 | HPLC / fluorescence | IC50 |  | SF2 | 106 µM
CC(C)CN(C[C@@H](O)[C@H](Cc1ccccc1)NC(=O)[C@H](CC(N)=O)NC(=O)c1ccc2ccccc2n1)C(=O)NC(C)(C)C | fluorescence | IC50 |  |  | 0.0063 µM
C[C@@H]1O[C@@H](O[C@H]2[C@H](Oc3cc(O)c4c(c3)O[C@H](c3ccc(O)cc3)CC4=O)O[C@H](CO)[C@@H](O)[C@@H]2O)[C@H](O)[C@H](O)[C@H]1O | HPLC / fluorescence | IC50 |  | SF2 | 220 µM
Cc1cc(SC2=C(O)CC(CCc3ccc(O)cc3)(C3CC3)OC2=O)c(C(C)(C)C)cc1CO | HPLC / absorbance | IC50 |  |  | 0.001 µM
CC(C)CN(C[C@@H](O)[C@H](Cc1ccccc1)NC(=O)O[C@H]1CO[C@H]2OCC[C@H]21)S(=O)(=O)c1ccc(C(N)=O)cc1 |  | Ki |  |  | 0.0000089 µM
CC(C)[C@H](NC(=O)[C@H](C)NC(=O)OCc1ccccc1)C(=O)N[C@@H](Cc1ccccc1)[C@@H](O)C(=O)N1CCC[C@H]1C(=O)NC(C)(C)C | fluorescence | Ki |  |  | 0.308 µM
CC(=O)O[C@@H]1[C@@H](OC(C)=O)[C@H](OC(C)=O)CO[C@H]1NC(=NCc1ccccc1)Nc1nc2ccc(C)cc2s1 |  | IC50 |  |  | 133 µg/mL
CC(C)C[C@H](NC(=O)[C@@H](NC(=O)[C@H](Cc1ccccc1)NC(=O)OCc1ccccc1)C(C)C)[C@@H](O)[C@H](O)[C@H](CC(C)C)NC(=O)[C@@H](NC(=O)[C@H](Cc1ccccc1)NC(=O)OCc1ccccc1)C(C)C | fluorescence | Ki |  |  | 0.0055 µM
Cc1c(O)cccc1C(=O)N[C@@H](Cc1ccccc1)[C@H](O)C(=O)N1CSC(C)(C)[C@H]1C(=O)NC(C)(C)C | HPLC | IC50 |  |  | <0.05 µM
CC(C)[C@H](NC(=O)OCc1ccccc1)C(=O)N[C@@H](Cc1ccccc1)[C@@H](O)[C@H](O)[C@H](Cc1ccccc1)NC(=O)[C@@H](NC(=O)OCc1ccccc1)C(C)C | fluorescence | Ki |  |  | 0.0011 µM
CC(C)(C)OC(=O)N[C@@H](Cc1ccccc1)[C@H](O)C[C@@H](Cc1ccccc1)C(=O)N[C@@H](CCC(=O)O)C(=O)N[C@@H](Cc1ccccc1)C(N)=O | absorbance | Ki |  |  | 0.0006 µM
N[C@@H](Cc1ccccc1)C(O)[C@@H](N)Cc1ccccc1 | fluorescence | IC50 |  |  | <50 µM
CCC(Cc1ccccc1)c1cc(O)c(C(CC)c2ccccc2)c(=O)o1 | fluorescence | Ki |  |  | 0.038 µM
O=c1c(O)c(-c2ccc(O)cc2O)oc2cc(O)cc(O)c12 | HPLC / fluorescence | IC50 |  | SF2 | 24 µM
CC(C)(C)OC(=O)N[C@@H](Cc1ccccc1)[C@@H](O)C[C@@H](Cc1ccc(OCc2nnnn2Cc2ccccc2)cc1)C(=O)N[C@H]1c2ccccc2C[C@H]1O | absorbance | IC50 |  |  | 0.0004 µM
CC(C)[C@H](NC(=O)OCc1ccccn1)C(=O)N[C@@H](Cc1ccccc1)[C@@H](O)[C@H](O)[C@H](Cc1ccccc1)NC(=O)[C@@H](NC(=O)OCc1ccccn1)C(C)C | fluorescence | IC50 |  |  | <0.001 µM
CC[C@H](C)/C=C(C)/C=C/C1=CC2=C(Cl)C(=O)[C@](C)(OC(C)=O)C(=O)C2=CO1 |  | IC50 |  |  | 62.7 µg/mL
CC(C)(C)OC(=O)N[C@@H](Cc1ccccc1)[C@H](O)CN[C@@H](Cc1ccccc1)C(=O)N[C@@H](CCC(N)=O)C(=O)N[C@@H](Cc1ccccc1)C(N)=O | absorbance | Ki |  |  | 0.014 µM
COc1ccc2nc(NC(=NCc3ccccc3)N[C@@H]3OC[C@@H](OC(C)=O)[C@H](OC(C)=O)[C@H]3OC(C)=O)sc2c1 |  | IC50 |  |  | 139.2 µg/mL
CC(C)[C@H](NC(=O)Cc1ccccn1)C(=O)N[C@@H](Cc1ccccc1)[C@@H](O)[C@H](O)[C@H](Cc1ccccc1)NC(=O)[C@@H](NC(=O)Cc1ccccn1)C(C)C | fluorescence | IC50 |  |  | <0.005 µM
CC(C)OP(=O)(COc1ccc(C[C@H](C[C@H](O)[C@H](Cc2ccccc2)NC(=O)OC(C)(C)C)C(=O)N[C@H]2c3ccccc3C[C@H]2O)cc1)OC(C)C | absorbance | IC50 |  |  | 0.0001 µM
Cc1c(O)cccc1C(=O)N[C@@H](Cc1ccccc1)[C@H](O)C(=O)N1CSC(C)(C)[C@H]1C(=O)NC12CC3CC(CC(C3)C1)C2 | HPLC | IC50 |  |  | >0.05 µM
O=C(/C=C/c1ccc(O)cc1)OC[C@H]1O[C@@H](Oc2c(-c3ccc(O)cc3)oc3cc(O)cc(O)c3c2=O)[C@H](O)[C@@H](O)[C@@H]1O |  | IC50 |  |  | >200 µg/mL
CC(C)(C)NC(=O)[C@@H]1CCCN1C(=O)[C@@H](O)[C@H](Cc1ccccc1)NC(=O)OCc1ccccc1 | fluorescence | IC50 |  |  | 2 µM
CC(C)[C@H](NC(=O)N(C)Cc1ccccn1)C(=O)N[C@@H](Cc1ccccc1)[C@@H](O)[C@H](O)[C@H](Cc1ccccc1)NC(=O)[C@@H](NC(=O)N(C)Cc1ccccn1)C(C)C | fluorescence | Ki |  |  | 0.001 µM
CC(C)[C@H](NC(=O)[C@H](Cc1ccccc1)NC(=O)OCc1ccccc1)C(=O)N[C@@H](Cc1ccccc1)[C@@H](O)[C@@H](O)[C@@H](Cc1ccccc1)NC(=O)[C@@H](NC(=O)[C@H](Cc1ccccc1)NC(=O)OCc1ccccc1)C(C)C | fluorescence | Ki |  |  | 0.0026 µM
COc1ccc2c(=O)cc(C(=O)O)oc2c1 | HPLC / fluorescence | IC50 |  | SF2 | 184 µM
CC(C)(C)OC(=O)N[C@@H](Cc1ccccc1)[C@@H](O)C[C@@H](Cc1ccc(OCc2nn[nH]n2)cc1)C(=O)N[C@H]1c2ccccc2C[C@H]1O | absorbance | IC50 |  |  | 0.00004 µM
CC[C@H](C)[C@H](NC(=O)[C@H](Cc1ccccc1)NC[C@@H](O)[C@H](Cc1ccccc1)NC(=O)OC(C)(C)C)C(=O)N[C@@H](Cc1ccccc1)C(N)=O | absorbance | Ki |  |  | 0.0055 µM
CC(C)(C)OC(=O)N[C@@H](Cc1ccccc1)[C@@H](O)C[C@@H](Cc1ccc(OCP(=O)(OCc2ccccc2)OCc2ccccc2)cc1)C(=O)N[C@H]1c2ccccc2C[C@H]1O | absorbance | IC50 |  |  | 0.0002 µM
Cc1c(O)cccc1C(=O)N[C@@H](Cc1ccccc1)[C@H](O)C(=O)N1CSC(C)(C)[C@H]1C(=O)NCc1ccc2c(c1)OCO2 | HPLC | IC50 |  |  | <0.05 µM
CC(C)[C@H](NC(=O)[C@H](C)NC(=O)OCc1ccccc1)C(=O)N[C@@H](Cc1ccccc1)C(=O)[C@H](O)[C@H](Cc1ccccc1)NC(=O)[C@@H](NC(=O)[C@H](C)NC(=O)OCc1ccccc1)C(C)C | fluorescence | IC50 |  |  | 0.0053 µM
Cc1c(O)cccc1C(=O)N[C@@H](Cc1ccccc1)[C@H](O)C(=O)N1CSC(C)(C)[C@H]1C(=O)NC(C)(C)C |  | Ki |  | IIIB | 0.0514 µM
O=c1c(O)c(-c2ccccc2)oc2cc(O)cc(O)c12 | HPLC / fluorescence | IC50 |  | SF2 | 520 µM
O=C1[C@@H](Cc2ccccc2)N(Cc2ccccc2)C(=O)N1CC(CCN1CCC(c2ccccc2)CC1)c1cccc(Cl)c1 |  | Ki |  |  | 0.002 µM
O=c1cc(-c2cc(O)c(O)c(O)c2)oc2c(O)c(O)c(O)c(O)c12 | HPLC / fluorescence | IC50 |  | SF2 | 11 µM
COc1ccc(S(=O)(=O)N(CC2CCCC2)C[C@@H](O)CN(CCc2ccccc2)C(=O)OCc2cccnc2)cc1 |  | Ki |  |  | 0.017 µM
CC(C)[C@H](NC(=O)OCc1ccccc1)C(=O)N[C@@H](Cc1ccccc1)[C@@H](O)[C@H](O)[C@H](Cc1ccccc1)NC(=O)[C@@H](NC(=O)OCc1ccccc1)C(C)C | fluorescence | IC50 |  |  | <0.001 µM
Cn1cc(C[C@H]2NC(=O)N(CC(CCN3CCC(c4ccccc4)CC3)c3cccc(Cl)c3)C2=O)c2ccccc21 |  | Ki |  |  | 0.02 µM
CC(C)[C@H](NC(=O)OCCN1CCOCC1)C(=O)N[C@@H](Cc1ccccc1)C(O)[C@H](Cc1ccccc1)NC(=O)[C@@H](NC(=O)OCCN1CCOCC1)C(C)C | fluorescence | IC50 |  |  | >0.1 µM
CC(C)[C@H](NC(=O)N(C)Cc1ccccn1)C(=O)N[C@@H](Cc1ccccc1)[C@H](O)[C@H](O)[C@H](Cc1ccccc1)NC(=O)[C@@H](NC(=O)N(C)Cc1ccccn1)C(C)C | fluorescence | Ki | PR-R8Q |  | 0.0027 µM

6 of the rows above, restated:

smiles,method,measure,changes,strain,result
Cc1c(O)cccc1C(=O)N[C@@H](Cc1ccccc1)[C@H](O)C(=O)N1CSC(C)(C)[C@H]1C(=O)NC12CC3CC(CC(C3)C1)C2,HPLC,IC50,,,>0.05 µM
Cc1c(O)cccc1C(=O)N[C@@H](Cc1ccccc1)[C@H](O)C(=O)N1CSC(C)(C)[C@H]1C(=O)NC(C)(C)C,,Ki,,IIIB,0.0514 µM
CC(C)[C@H](NC(=O)[C@H](Cc1ccccc1)NC(=O)OCc1ccccc1)C(=O)N[C@@H](Cc1ccccc1)[C@@H](O)[C@@H](O)[C@@H](Cc1ccccc1)NC(=O)[C@@H](NC(=O)[C@H](Cc1ccccc1)NC(=O)OCc1ccccc1)C(C)C,fluorescence,Ki,,,0.0026 µM
COc1ccc2nc(NC(=NCc3ccccc3)N[C@@H]3OC[C@@H](OC(C)=O)[C@H](OC(C)=O)[C@H]3OC(C)=O)sc2c1,,IC50,,,139.2 µg/mL
CC(C)[C@H](NC(=O)N(C)Cc1ccccn1)C(=O)N[C@@H](Cc1ccccc1)[C@H](O)[C@H](O)[C@H](Cc1ccccc1)NC(=O)[C@@H](NC(=O)N(C)Cc1ccccn1)C(C)C,fluorescence,Ki,PR-R8Q,,0.0027 µM
O=c1c(O)c(-c2ccccc2)oc2cc(O)cc(O)c12,HPLC / fluorescence,IC50,,SF2,520 µM